Reference: the supplement of paper PMC3578754

Assays:
Assay in all cases: fold change of IC50 against reference virus; higher = more resistant; Cell-culture drug susceptibility tests of virus bearing the protease of each isolate, gathered from many studies.
[1] = compound: Cc1c(O)cccc1C(=O)N[C@@H](CSc1ccccc1)[C@H](O)CN1C[C@H]2CCCC[C@H]2C[C@H]1C(=O)NC(C)(C)C [nelfinavir]
[2] = compound: COC(=O)N[C@H](C(=O)N[C@@H](Cc1ccccc1)[C@@H](O)CN(Cc1ccc(-c2ccccn2)cc1)NC(=O)[C@@H](NC(=O)OC)C(C)(C)C)C(C)(C)C [atazanavir]
[3] = compound: Cc1cccc(C)c1OCC(=O)N[C@@H](Cc1ccccc1)[C@@H](O)C[C@H](Cc1ccccc1)NC(=O)[C@H](C(C)C)N1CCCNC1=O [lopinavir]
[4] = compound: CC(C)(C)NC(=O)[C@@H]1C[C@@H]2CCCC[C@@H]2CN1C[C@@H](O)[C@H](Cc1ccccc1)NC(=O)[C@H](CC(N)=O)NC(=O)c1ccc2ccccc2n1 [saquinavir]
[5] = compound: CC(C)(C)NC(=O)[C@@H]1CN(Cc2cccnc2)CCN1C[C@@H](O)C[C@@H](Cc1ccccc1)C(=O)N[C@H]1c2ccccc2C[C@H]1O [indinavir]
[6] = compound: CC(C)c1nc(CN(C)C(=O)N[C@H](C(=O)N[C@@H](Cc2ccccc2)C[C@H](O)[C@H](Cc2ccccc2)NC(=O)OCc2cncs2)C(C)C)cs1 [ritonavir]

| Test System | fold change of IC50 against reference virus [1] | fold change of IC50 against reference virus [2] | fold change of IC50 against reference virus [3] | fold change of IC50 against reference virus [4] | fold change of IC50 against reference virus [5] | fold change of IC50 against reference virus [6] |
| --- | --- | --- | --- | --- | --- | --- |
| HIV-1 isolate 1360 (protease changes: L10I L19I M46I I62V L63P I72M G73S V77I V82F L90M I93L, study 83) | 43 | 9.5 | 40 | 2.2 | 41 | 69 |
| HIV-1 isolate 1384 (protease changes: L19I R41K L63P I72M V77I L90M, study 15) | 2.9 | 1.5 | 1 | 1.5 | 1.4 | 2.6 |
| HIV-1 isolate 1402 (protease changes: I15V M36I, study 15) | 0.9 | 0.9 | 0.8 | 0.9 | 0.8 | 1.2 |
| HIV-1 isolate 1410 (protease changes: L10F I13V L23I L33F I54V R57K Q58E D60E L63P A71V L76V V82A I93L, study 64) | 75 | 21 | 280 | 7.2 | 46 | ≥ 800 |
| HIV-1 isolate 1442 (protease changes: L10V I13V I15V L19I K20T V32I M36I M46I I47V Q58E L63P I64V I84V Q92K, study 64) | 33 | 47 | 76 | 6.5 | 16 | 38 |
| HIV-1 isolate 1491 (protease changes: D60E Q61E L63P I64M I72V, study 15) | 0.8 | 0.7 | 0.6 | 0.7 | 0.7 | 0.8 |
| HIV-1 isolate 1519 (protease changes: L10V M36I F53L L63P V82A, study 138) | 2.5 | 1.9 | 4.3 | 1.2 | 2.5 | 14.5 |
| HIV-1 isolate 1527 (protease changes: L10I K20I M36I I54V L63P A71V V82T, study 138) | 29.8 | 15.2 | 10.1 | 7.1 | 23.4 | 36.7 |
| HIV-1 isolate 1570 (protease changes: L10F M46L I54V Q58E D60E Q61D L63P A71T I72R V77I V82A L90M I93L, study 15) | 58 | 13 | 67 | 18 | 42 | 102 |
| HIV-1 isolate 1611 (protease changes: L10I I13V E35D M36I R41K I50V L63P A71V, study 117) | 7 | 2.1 | 9.4 | 4.5 | 2.5 | 12.6 |
| HIV-1 isolate 1615 (protease changes: K20I N37E M46L L63S A71V T74S V77I I93L, study 83) | 12 | 2.4 | 1.4 | 2.1 | 2.4 | 1.8 |
| HIV-1 isolate 1619 (protease changes: I15V D30N E35D M36V N37T K45Q M46V I64V, study 65) | 24 | 2.2 | 0.5 | 0.8 | 0.8 | 0.7 |
| HIV-1 isolate 1635 (protease changes: L33V I62V L63P L89I, study 15) | 1.1 | 1.3 | 1 | 0.8 | 1.4 | 1.6 |

Fold change is the IC50 on the isolate divided by the IC50 on a reference virus; 1 = unchanged, higher = more resistant. Changes are given against the subtype B consensus. No active / inactive call. The values were gathered from many studies (numbered anew) with different assays, which the source does not name. Most viruses are clinical isolates; some are laboratory strains or clones with known resistance changes. Isolates with mixed residues are left out; stretches that were not sequenced show no change. Round top values that many isolates share are read here as limits; other very high values and 0.1 may be limits too. The protease changes I3V and N37S, insertions and deletions cannot be read from the source.
